Source: patent publication US10335503B2, “Compound that specifically binds to AMPA receptor” (Public University Corporation Yokohama City University, priority 2015, dated 2019)

Chains of the proteins cited; added tags and fusions are not shown.
UniProt Q00975, whole entry: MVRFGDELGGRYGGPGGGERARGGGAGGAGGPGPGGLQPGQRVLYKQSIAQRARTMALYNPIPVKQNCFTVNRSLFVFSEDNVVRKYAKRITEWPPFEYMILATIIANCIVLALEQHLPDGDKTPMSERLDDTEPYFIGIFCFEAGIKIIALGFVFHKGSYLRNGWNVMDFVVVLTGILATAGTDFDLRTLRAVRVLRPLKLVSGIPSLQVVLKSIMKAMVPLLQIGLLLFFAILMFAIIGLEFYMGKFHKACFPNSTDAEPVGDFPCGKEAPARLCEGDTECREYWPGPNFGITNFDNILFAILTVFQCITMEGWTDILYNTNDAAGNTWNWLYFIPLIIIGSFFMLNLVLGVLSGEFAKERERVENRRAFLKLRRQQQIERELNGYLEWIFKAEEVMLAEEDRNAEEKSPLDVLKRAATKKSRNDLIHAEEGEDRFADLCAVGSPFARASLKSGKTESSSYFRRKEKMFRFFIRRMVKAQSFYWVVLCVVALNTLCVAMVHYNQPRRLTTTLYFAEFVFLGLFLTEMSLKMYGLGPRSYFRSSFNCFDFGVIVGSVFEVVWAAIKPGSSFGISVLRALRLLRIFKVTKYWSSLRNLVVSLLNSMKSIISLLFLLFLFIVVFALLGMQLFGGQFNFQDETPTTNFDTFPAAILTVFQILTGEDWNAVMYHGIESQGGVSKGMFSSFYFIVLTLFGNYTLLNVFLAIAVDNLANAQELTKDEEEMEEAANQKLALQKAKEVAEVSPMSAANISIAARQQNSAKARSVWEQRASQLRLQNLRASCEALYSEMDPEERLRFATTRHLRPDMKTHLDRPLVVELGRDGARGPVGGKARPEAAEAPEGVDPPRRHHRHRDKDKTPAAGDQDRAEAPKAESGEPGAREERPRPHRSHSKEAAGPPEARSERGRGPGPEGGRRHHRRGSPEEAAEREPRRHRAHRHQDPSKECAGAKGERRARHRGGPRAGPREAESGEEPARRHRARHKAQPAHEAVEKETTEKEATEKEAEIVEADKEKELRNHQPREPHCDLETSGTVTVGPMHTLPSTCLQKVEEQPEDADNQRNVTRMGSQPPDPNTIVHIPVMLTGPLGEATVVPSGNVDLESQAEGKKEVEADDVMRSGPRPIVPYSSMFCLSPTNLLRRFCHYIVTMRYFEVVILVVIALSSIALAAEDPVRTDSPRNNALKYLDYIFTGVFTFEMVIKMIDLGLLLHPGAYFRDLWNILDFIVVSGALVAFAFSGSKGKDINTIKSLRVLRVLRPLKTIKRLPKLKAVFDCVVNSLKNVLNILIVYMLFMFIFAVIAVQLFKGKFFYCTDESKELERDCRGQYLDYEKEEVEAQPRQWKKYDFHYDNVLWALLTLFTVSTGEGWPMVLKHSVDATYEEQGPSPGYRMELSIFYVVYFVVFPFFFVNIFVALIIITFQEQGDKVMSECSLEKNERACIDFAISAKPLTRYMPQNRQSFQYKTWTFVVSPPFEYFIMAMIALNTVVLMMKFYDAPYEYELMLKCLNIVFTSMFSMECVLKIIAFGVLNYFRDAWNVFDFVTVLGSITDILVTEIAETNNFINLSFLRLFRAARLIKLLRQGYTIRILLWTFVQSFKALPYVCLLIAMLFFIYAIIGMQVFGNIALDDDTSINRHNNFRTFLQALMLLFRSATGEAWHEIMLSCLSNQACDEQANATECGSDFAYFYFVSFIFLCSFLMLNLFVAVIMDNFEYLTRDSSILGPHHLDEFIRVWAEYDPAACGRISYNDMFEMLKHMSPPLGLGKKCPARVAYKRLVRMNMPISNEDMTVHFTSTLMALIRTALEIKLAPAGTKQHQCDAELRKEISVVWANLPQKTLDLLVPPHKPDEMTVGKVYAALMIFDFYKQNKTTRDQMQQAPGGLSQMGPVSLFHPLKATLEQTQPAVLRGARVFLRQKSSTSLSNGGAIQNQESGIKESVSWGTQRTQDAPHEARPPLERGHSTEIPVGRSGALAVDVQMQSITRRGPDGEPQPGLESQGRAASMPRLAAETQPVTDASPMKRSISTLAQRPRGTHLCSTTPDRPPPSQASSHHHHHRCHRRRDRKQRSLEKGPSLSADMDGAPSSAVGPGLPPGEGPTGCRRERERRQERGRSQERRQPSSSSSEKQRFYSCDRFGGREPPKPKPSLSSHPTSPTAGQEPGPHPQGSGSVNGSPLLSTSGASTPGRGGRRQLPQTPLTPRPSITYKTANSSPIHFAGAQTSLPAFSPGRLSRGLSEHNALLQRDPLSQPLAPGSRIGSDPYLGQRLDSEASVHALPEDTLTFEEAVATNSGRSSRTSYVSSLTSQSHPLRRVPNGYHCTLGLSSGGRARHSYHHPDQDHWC

Target: Ca channel (Type N) (Homo sapiens, UniProt Q00975)
Assay: Receptor binding panel: Ca channel (Type N)

Question: For ω-Conotoxin GVIA [reference compound], which “Inhibition (%)” value is on record?
Answer: 99.35%
